Data reported in article PMC8437407.

Assays:
[1] = target: PspA on live wild-type Spn strain WU2 (Streptococcus pneumoniae strain WU2)
[2] = target: PspC (group 3 PRD containing the NPB) on live Spn strain TIGR4 (Streptococcus pneumoniae strain TIGR4)

## purified rabbit muscle LDH, consisting primarily of LDH-A (from UniProt P13491 1-332) (enzyme)
[1]
  bacterial titers in the lungs of mice 24 h after intratracheal challenge with WU2 given in PBS with rabbit LDH-A against without: > 10 fold
[2]
  bacterial titers in the lungs of mice 24 h after intratracheal challenge with TIGR4 given in PBS with rabbit LDH-A against without: > 10 fold
